Assay results published in US5786168, “Method for recombinant production of antigen non-specific glycosylation inhibiting factor (GIF)” (Kirin Beer Kabushiki Kaisha, dated 1998).

Molecular target: bee venom phospholipase A2 (PLA2) (honey bee, UniProt P00630)
Experiment: supernatants of the 5 clones cultured without anti-CD3 treatment, PLA2-Sepharose

B1: human antigen non-specific glycosylation inhibiting factor (GIF), hybridoma-derived (other)
chain: PMFIVNTNVPRASVPDGFLSELTQQLAQATGKPPQYIAVHVVPDQLMAFGGSSEPCALCSLHSIGKIGGAQNRSYSKLLCGLLAERLRISPDRVYINYYDMNAANVGWNNSTFA
B1: no binding.
